Data on two compounds can be found in patent US20060115815A1 (priority 2002, published 2006).

Assay [1] relates to wild-type HIV-1 strain IIIB. Description: Anti-HIV-1 Cell Culture Assay (EC50), XTT cytopathic effect in MT2 cells. The format is cell-based. In general terms: Formazan colour is commonly taken as a measure of viable cells.
The target of assay [2] is recombinant HIV-1 protease (Human immunodeficiency virus type 1 group M subtype B, UniProt P04585). Nature of the assay: HIV-1 Protease Enzyme Assay (Ki), fluorimetric hexapeptide substrate cleavage. To be noted: class symbols, Table 10; tested form: TFA. The format is biochemical.

SMILES strings stand for the structures. Like-named read-outs stand apart in the source and are kept apart here. Structures were worked out from names or drawings and are uncertain.

As to `COc1ccc(S(=O)(=O)N(CC(C)C)C[C@@H](O)[C@H](Cc2ccc(OCP(=O)(Oc3ccccc3)Oc3ccccc3)cc2)NC(=O)O[C@H]2CO[C@H]3OCC[C@H]32)cc1` [drawing 651 R1=OPh R2=OPh], the EC50 (as a rule, the midpoint of the concentration-response curve) in assay [1] (read-out: Anti-HIV-1 Cell Culture Activity EC50, MT2 cells, wild-type HIV-1 IIIB, XTT, 5 days) was 2.3 nM.

`CCOC(=O)[C@H](C)OP(=O)(CCNCc1ccc(C[C@H](NC(=O)O[C@H]2CO[C@H]3OCC[C@H]32)[C@H](O)CN(CC(C)C)S(=O)(=O)c2ccc(OC)cc2)cc1)Oc1ccccc1OCC` (stereo partly drawn): the inhibition constant (Ki) (in general, a dissociation constant, usually derived from enzyme kinetics or from competition with a known ligand) in assay [2] lay within 0.01 to 0.1 nM. This compound also showed an EC50 in assay [1] (class symbols, Table 10, tested form: TFA) of 50 to 500 nM.
